Compound potency records, mixed from different reports. Data source: NIAID ChemDB in PubChem.

Shared fields: cytotoxicity tests; cell line: C8166; measure: CC50

CCn is the concentration with n% toxicity to the cells.

{"structure": "C=C(C)[C@@]12OC3(C)O[C@@H]1[C@@H]1[C@H](O)[C@@](C)(O)[C@@H](O)[C@@]4(O)[C@@H](C[C@H](C)[C@@H]4O)[C@@]1(O3)[C@H](C)[C@@H]2OCc1ccccc1", "method": "MTT", "value": "0.0371 µM"}
{"structure": "CCCO[C@H]1C[C@H](n2cc(C)c(=O)[nH]c2=O)O[C@@H]1CO", "value": ">1000 µM"}
{"structure": "CC[C@H](C)[C@H](NC(=O)[C@H](Cc1ccccc1)NP(=O)(OC)C(N)Cc1ccccc1)C(=O)NCC(C)C", "value": "30 µM"}
{"structure": "O=C1c2ccccc2C(=O)c2c(OS(=O)(=O)c3ccccc3)ccc(Cl)c21", "method": "MTT", "value": ">200 µg/mL"}
{"structure": "C=C(C)[C@]1(O)C[C@@H](C)[C@@]2(O)[C@H]([C@H]1OC(=O)/C=C/C=C/CCCCC)[C@@H]1O[C@]1(CO)[C@@H](O)[C@]1(O)C(=O)C(C)=C[C@H]12", "method": "MTT", "value": "109 µM"}
{"structure": "CCO[C@H]1c2cc(O)c(OC)c(OC)c2-c2c(cc(O)c(OC)c2OC)C[C@H](C)[C@@H]1C", "method": "MTT", "value": ">200 µg/mL"}
{"structure": "Cc1ccc2c(c1)C1[C@H](C)CC[C@](C)(C(=O)O)[C@@H]1CC2", "method": "MTT", "value": ">200 µM"}
{"structure": "COc1cc(OC)c2oc(=O)ccc2c1", "method": "MTT", "value": ">970.9 µM"}
{"structure": "COc1ccc([C@]2(OC)O[C@@H](c3cc(OC)c(OC)c(OC)c3)[C@@]3(C)O[C@@]23C)cc1OC", "method": "MTT", "value": "96.1 µg/mL"}
{"structure": "C[C@H]1[C@@H]2CC[C@@H]1[C@@H](OC(=O)c1ccccc1)/C=C/C=C/C(=O)O[C@H]1CC[C@@H]3[C@]1(O)[C@H](O)[C@@]1(CO)O[C@H]1[C@H]1[C@@H](O)[C@@](O)([C@H]4OC(C)(c5ccccc5)O[C@]13[C@@H]4C)[C@](C)(O)C2", "method": "MTT", "value": "0.0152 µM"}
{"structure": "O=c1ccc2ccc3c(c2o1)CCO3", "method": "MTT", "value": ">1060 µM"}
{"structure": "CC(C)(C)NC(=O)[C@@H]1C[C@@H]2CCCC[C@@H]2CN1C[C@H](O)CNC(=O)[C@@H]1N[C@@H]([C@H](NC(=O)Cc2ccccc2)C(=O)NCc2ccccc2)SC1(C)C", "value": ">100 µM"}
{"structure": "COc1cc2c(c(OC)c1O)-c1c(cc3c(c1OC)OCO3)C[C@H](C)[C@H](C)[C@@H]2O", "method": "MTT", "value": ">200 µg/mL"}
{"structure": "O=c1cc(-c2cccc3c2Sc2ccccc2S3)oc(N2CCOCC2)c1", "value": ">30 µM"}
{"structure": "CCCCCCCCC(=O)O[C@@]12[C@H](OC(=O)/C=C/c3ccc(Br)cc3)[C@@H](C)[C@@]3(O)[C@@H](C=C(CO)C[C@]4(O)C(=O)C(C)=C[C@@H]34)[C@@H]1C2(C)C", "method": "MTT", "value": "32.3 µM"}
{"structure": "Cc1ccc(S(=O)(=O)n2cc(/C=N/NC(=O)c3ccccc3)c3ccccc32)cc1", "method": "MTT", "value": "89.93 µg/mL"}
{"structure": "CC[C@H](C)[C@H](NC(=O)[C@@H]1CCCN1P(=O)(OC)C(CC1CCCCC1)NC(=O)OCc1ccccc1)C(=O)NCC(C)C", "value": "16 µM"}
{"structure": "O=C(CN1CCCC1)Nc1ccc(Cc2ccc(NC(=O)CN3CCCC3)cc2)cc1", "value": "73.11 µg/mL"}
{"structure": "Cc1cn([C@H]2C=C[C@@H](CNC(=O)CC3(C)C[C@@](C)(O)CO3)O2)c(=O)[nH]c1=O", "value": ">500 µM"}
{"structure": "C=C(C)C1Cc2cc3ccc(=O)oc3cc2O1", "method": "MTT", "value": "636.1 µM"}
{"structure": "CCn1cc(C(=O)O)c(=O)c2cc(F)c(N3CCN(c4ccccc4OC)CC3)c(OC(F)F)c21", "value": "2.6 µM"}
{"structure": "CN1C(=O)/C(=C/c2ccco2)C(O)N(C)C1=O", "value": "800 µM"}
{"structure": "CCO[C@H]1C[C@H](n2cc(C)c(=O)[nH]c2=O)O[C@@H]1CO", "value": ">1000 µM"}
{"structure": "COC(=O)CC(O)(CC(=O)O)C(=O)NCCCC[C@H](NC(=O)OCc1ccccc1)C(=O)N[C@@H](CCCCNC(=O)C(O)(CC(=O)O)CC(=O)OC)C(=O)OCc1ccccc1", "method": "XTT", "value": ">250 µM"}
{"structure": "CS(=O)(=O)Oc1ccc(Cl)c2c1C(=O)c1ccccc1C2=O", "method": "MTT", "value": ">200 µg/mL"}
{"structure": "NCCCC[C@H](NC(=O)OCc1ccccc1)C(=O)OCc1ccccc1", "method": "XTT", "value": "200 µM"}
{"structure": "CC[C@H](C)[C@H](NC(=O)[C@@H](Cc1ccccc1)NP(=O)(OC)C(Cc1ccccc1)NC(=O)[C@@H](CC(N)=O)NC(=O)c1ccc2ccccc2n1)C(=O)NCC(C)C", "value": "45 µM"}
{"structure": "CC/C=C\\C/C=C\\C/C=C\\C/C=C\\C/C=C\\C/C=C\\CCC(=O)O[C@@H]1[C@@H](C)[C@@]2(O)[C@@H](C=C(CO)C[C@]3(O)C(=O)C(C)=C[C@@H]23)[C@@H]2C(C)(C)[C@]12OC(C)=O", "method": "MTT", "value": "44.12 µM"}
{"structure": "CC(=O)O[C@H]1C[C@H](n2cc(C)c(=O)[nH]c2=O)O[C@@H]1COP(=O)(OC[C@H]1O[C@@H](n2cc(C)c(=O)[nH]c2=O)C[C@@H]1OC(C)=O)OCC(F)(F)F", "value": ">1000 µM"}
{"structure": "CCC(C)[C@H](NC(=O)[C@@H]1CCCN1[P@@](=O)(OC)[C@@H](Cc1ccccc1)NC(=O)[C@H](CC(N)=O)NC(=O)OC(C)(C)C)C(=O)NCC(C)C", "value": "80 µM"}
{"structure": "C=C(C)[C@@H]1CC[C@]2(C(=O)NCCCCCCCC(=O)N[C@@H](CC(C)C)[C@@H](O)CC(=O)O)CC[C@]3(C)[C@H](CC[C@@H]4[C@@]5(C)CC[C@H](O)C(C)(C)[C@@H]5CC[C@]43C)[C@@H]12", "value": ">2.7 µM"}
{"structure": "Cn1cc(C=O)c(=O)n(C)c1=O", "value": "750 µM"}
{"structure": "C=C(C)[C@@]12OC3(C)O[C@@H]1[C@@H]1[C@H](O)[C@@](C)(O)[C@@H](OCc4ccccc4)[C@@]4(O)[C@@H](C[C@H](C)[C@@H]4OC(C)=O)[C@@]1(O3)[C@H](C)[C@@H]2OCc1ccccc1", "method": "MTT", "value": ">0.289 µM"}
{"structure": "CCNC(=O)[C@@H](NC(=O)Cc1ccccc1)[C@@H]1N[C@@H](C(=O)NC[C@H](O)CN2C[C@H]3CCCC[C@H]3C[C@H]2C(=O)NC(C)(C)C)C(C)(C)S1", "value": ">100 µM"}
{"structure": "C=CCOC(=O)CC(O)(CC(=O)O)C(=O)NCCCC[C@H](NC(=O)OCc1ccccc1)C(=O)N[C@@H](CCCCNC(=O)C(O)(CC(=O)O)CC(=O)OCC=C)C(=O)OCc1ccccc1", "method": "XTT", "value": "500 µM"}
{"structure": "CCc1c(-c2ccc3c(c2)OCO3)nc(SCc2cc(-c3ccc(C)cc3)n[nH]2)[nH]c1=O", "method": "MTT", "value": "102 µM"}
{"structure": "Cc1cn([C@H]2C[C@H](N=[N+]=[N-])[C@@H](COP(=O)(OC[C@H]3O[C@@H](n4cc(C)c(=O)[nH]c4=O)C[C@@H]3N=[N+]=[N-])OCC(F)(F)F)O2)c(=O)[nH]c1=O", "value": "600 µM"}
{"structure": "O=C(O)/C=C(/CC(=O)O)C(=O)NCCCC[C@H](NC(=O)OCc1ccccc1)C(=O)OCc1ccccc1", "method": "XTT", "value": "100 µM"}
{"structure": "Cc1ccc(S(=O)(=O)n2cc(/C=N/NC(=O)c3ccccc3)c3cc(C#N)ccc32)cc1", "method": "MTT", "value": "124 µg/mL"}
{"structure": "COC1=C(C)C(=O)C(C)(C)C(=O)C1(O)OC(=O)/C=C/c1ccccc1", "method": "MTT", "value": ">200 µM"}
{"structure": "CCCC(=O)O[C@@]12[C@H](OC(=O)/C=C/c3ccccc3)[C@@H](C)[C@@]3(O)[C@@H](C=C(COC(=O)/C=C/c4ccccc4)C[C@]4(O)C(=O)C(C)=C[C@@H]34)[C@@H]1C2(C)C", "method": "MTT", "value": ">200 µM"}
{"structure": "COc1cc2oc(=O)c3c(O)ccc(O)c3c2c(OC)c1OC", "method": "MTT", "value": ">200 µM"}
{"structure": "CC(C)=CCC/C(C)=C/COc1ccc2ccc(=O)oc2c1", "method": "MTT", "value": "217.8 µM"}
{"structure": "C=C(C)[C@@]1(OCc2ccccc2)[C@H](OC(C)=O)[C@@H]2[C@H](OC(C)=O)[C@@]3(C)O[C@@]4(C(C[C@H](C)[C@@H]4OC(C)=O)[C@@]2(O)[C@H](C)[C@@H]1OC(C)=O)[C@@H]3OC(C)=O", "method": "MTT", "value": ">0.2801 µM"}
{"structure": "CCCCCCCCCCCCCCCCCCCC(=O)O[C@@H]1[C@@H](C)[C@@]2(O)[C@@H](C=C(COC(C)=O)C[C@]3(O)C(=O)C(C)=C[C@@H]23)[C@@H]2C(C)(C)[C@]12O", "method": "MTT", "value": ">200 µM"}
{"structure": "Cc1ccc(S(=O)(=O)n2cc(/C=N/NC(=O)c3ccccc3)c3cc([N+](=O)[O-])ccc32)cc1", "method": "MTT", "value": "73.09 µg/mL"}
{"structure": "O=C(Oc1ccc(Cl)c2c1C(=O)c1ccccc1C2=O)c1ccccc1", "method": "MTT", "value": ">200 µg/mL"}
{"structure": "CCCCC/C(=N\\NC(=O)c1ccccc1)c1cn(S(=O)(=O)c2ccc(C)cc2)c2ccccc12", "method": "MTT", "value": ">200 µg/mL"}
{"structure": "NCCCC[C@H](NC(=O)OCc1ccccc1)C(=O)N[C@@H](CCCCN)C(=O)OCc1ccccc1", "method": "XTT", "value": "1000 µM"}
{"structure": "CC1(C)C=Cc2c(cc(O)c3c2O[C@H](c2ccc(O)cc2)CC3=O)O1", "method": "MTT", "value": "210.8 µM"}
{"structure": "C/C(=N\\NC(=O)c1ccccc1)c1cn(S(=O)(=O)c2cccc([N+](=O)[O-])c2)c2ccccc12", "method": "MTT", "value": ">200 µg/mL"}
{"structure": "C[C@@H](C(=O)O)[C@@H]1CC[C@]2(C)[C@@H]3CC[C@H]([C@](C)(O)CO)[C@]4(CCC(=O)O4)C[C@@H]3CC[C@@]12C", "method": "MTT", "value": ">200 µg/mL"}
{"structure": "C=C(C)[C@@]12OC3(C)O[C@@H]1[C@@H]1[C@H](O)[C@@](C)(O)[C@@H](OC(C)=O)[C@@]4(O)[C@@H](C[C@H](C)[C@@H]4O)[C@@]1(O3)[C@H](C)[C@@H]2OCc1ccccc1", "method": "MTT", "value": "0.1304 µM"}
{"structure": "Cc1cn([C@H]2C=C[C@@H](CO)O2)c(=O)[nH]c1=O", "value": "400 µM"}
{"structure": "CC(=O)O[C@@]12[C@H](OC(=O)CCCCC3SCC4NC(=O)NC43)[C@@H](C)[C@@]3(O)[C@@H](C=C(CO)C[C@]4(O)C(=O)C(C)=C[C@@H]34)[C@@H]1C2(C)C", "method": "MTT", "value": ">200 µM"}
{"structure": "O=C(C[C@@H](O)CCc1ccccc1)c1ccc(O)cc1", "method": "MTT", "value": "93.02 µg/mL"}
{"structure": "CCC(C)[C@H](NC(=O)[C@@H]1CCCN1[P@@](=O)(OC)[C@H](Cc1ccccc1)NC(=O)[C@H](CC(N)=O)NC(=O)OC(C)(C)C)C(=O)NCC(C)C", "value": "30 µM"}
{"structure": "C=CC(C)(C)C1C2=C(C=CC(C)(C)O2)C(OC)=C2C=CC(=O)OC21", "method": "MTT", "value": "68.4 µM"}
{"structure": "C/C(=N\\NC(=O)c1ccccc1)c1cn(S(=O)(=O)c2ccc(Cl)cc2)c2ccccc12", "method": "MTT", "value": ">200 µg/mL"}
{"structure": "CC(=O)O[C@H]1C[C@H](n2cc(C)c(=O)[nH]c2=O)O[C@@H]1COP(=O)(OC[C@H]1O[C@@H](n2cc(C)c(=O)[nH]c2=O)C[C@@H]1OC(C)=O)OCC(Cl)(Cl)Cl", "value": ">1000 µM"}
{"structure": "Nc1ccn([C@@H]2CS[C@H](CO)O2)c(=O)n1", "method": "MTT", "value": ">1000 µM"}
{"structure": "C/C(=N\\NC(=O)c1ccccc1)c1cn(S(=O)(=O)c2ccc(C)cc2)c2ccccc12", "method": "MTT", "value": "8.79 µg/mL"}
{"structure": "COc1cc([C@@H]2c3cc4c(cc3[C@H](O)[C@H]3COC(=O)[C@H]23)OCO4)cc(OC)c1OC", "method": "MTT", "value": "0.15 µM"}
{"structure": "O=C(N[C@@H](CCCCNC(=O)c1cccc(O)c1C(=O)O)C(=O)OCc1ccccc1)OCc1ccccc1", "method": "XTT", "value": "125 µM"}
{"structure": "COC(=O)[C@H](Cc1ccccc1)NP(=O)(OC)C(Cc1ccccc1)NC(=O)OCc1ccccc1", "value": "100 µM"}
{"structure": "O=C(N/N=C/c1cn(S(=O)(=O)c2ccc(Cl)cc2)c2ccccc12)c1ccccc1", "method": "MTT", "value": "53.15 µg/mL"}

Repeating the final 7 entries:

structure,method,value
CC(=O)O[C@H]1C[C@H](n2cc(C)c(=O)[nH]c2=O)O[C@@H]1COP(=O)(OC[C@H]1O[C@@H](n2cc(C)c(=O)[nH]c2=O)C[C@@H]1OC(C)=O)OCC(Cl)(Cl)Cl,,>1000 µM
Nc1ccn([C@@H]2CS[C@H](CO)O2)c(=O)n1,MTT,>1000 µM
C/C(=N\NC(=O)c1ccccc1)c1cn(S(=O)(=O)c2ccc(C)cc2)c2ccccc12,MTT,8.79 µg/mL
COc1cc([C@@H]2c3cc4c(cc3[C@H](O)[C@H]3COC(=O)[C@H]23)OCO4)cc(OC)c1OC,MTT,0.15 µM
O=C(N[C@@H](CCCCNC(=O)c1cccc(O)c1C(=O)O)C(=O)OCc1ccccc1)OCc1ccccc1,XTT,125 µM
COC(=O)[C@H](Cc1ccccc1)NP(=O)(OC)C(Cc1ccccc1)NC(=O)OCc1ccccc1,,100 µM
O=C(N/N=C/c1cn(S(=O)(=O)c2ccc(Cl)cc2)c2ccccc12)c1ccccc1,MTT,53.15 µg/mL

Lines come from different laboratories, so protocols vary. An empty or dashed field is not shown.